Measured values from several laboratories, pooled; numbers as filed in NIAID ChemDB.

Shared fields: whole-cell or culture tests; organism: Plasmodium falciparum; read-out: EC50

An empty or dashed field is not shown. Conditions beyond the fields shown may differ between rows. ECn: concentration that inhibits the pathogen or its effect by n%.

structure,strain or isolate,changes,cell line,read by,setting,result
O=C1C(=O)c2ccccc2C(O)=C1c1ccccc1,3D7,-,Erythrocytes,flow cytometry,-,0.44 µM
O=C(/C=C/c1ccc(O)c(O)c1)OCC1OC(OCC(O)C(O)C(O)C(O)CO)CC(O)C1O,3D7,-,Erythrocytes,-,-,>25 µM
O=C1C(=O)c2ccccc2C(O)=C1c1ccc([N+](=O)[O-])cc1,3D7,-,Erythrocytes,flow cytometry,-,13.7 µM
CC[C@H]1OC(=O)[C@H](C)[C@@H](OC2C[C@@](C)(OC)[C@@H](O)[C@H](C)O2)[C@H](C)[C@@H](OC2O[C@H](C)C[C@H](N(C)C)[C@H]2O)[C@](C)(OC2C[C@@H](N(C)C)[C@@H](O)[C@H](C)O2)C[C@@H](C)CN(C)[C@H](C)[C@@H](O)[C@]1(C)O,W2 Mef,-,RBC,fluorescence,120 h,0.21 µM
COc1cc(C(C)=O)ccc1OC1OC(COC(=O)/C=C/c2ccc(O)c(O)c2)C(O)C(O)C1O,3D7,-,Erythrocytes,-,-,>25 µM
N#Cc1nc2c(-c3nc4ccccc4[nH]3)c(N)n(CC(O)c3ccccc3)c2nc1C#N,NF54,-,Erythrocytes,hypoxanthine uptake / radiometric,-,0.44 µM
NCCCC[C@H](N)C(=O)N(O)C1C[C@@H](C(N)=O)N(C(=O)c2ccccc2-c2ncc(-c3ccccc3)o2)C1,3D7,-,Red blood cells,flow cytometry,48 h,518 µM
O=C(/C=C/c1ccccc1)OCC1OC(OCC(O)C(O)C(O)C(O)CO)CC(O)C1O,3D7,-,Erythrocytes,-,-,>25 µM
CCN(CC)CCCC(C)n1c(N)c(-c2nc3ccccc3[nH]2)c2nc(C#N)c(C#N)nc21,K1,-,Erythrocytes,hypoxanthine uptake / radiometric,-,0.04 µM
C[C@H]1Cc2c([nH]c3cc(Cl)c(F)cc23)[C@@]2(N1)C(=O)Nc1ccc(Cl)cc12,GNF-Pf4492R-1,GNF-Pf4492-resistant A211T,-,SYBR Green / fluorescence,-,0.0000615 µM
O=C1C(=O)c2ccccc2C(O)=C1C1CCC(c2ccc(Cl)cc2)CC1,W2,-,RBC,flow cytometry,-,0.0012 µM
NCCSC[C@H](N)C(=O)N(O)C1C[C@@H](C(N)=O)N(C(=O)c2ccc(-c3cccc([N+](=O)[O-])c3)o2)C1,3D7,-,Red blood cells,flow cytometry,96 h,38.4 µM
N#Cc1nc2c(-c3nc4ccccc4s3)c(N)n(CCCn3ccnc3)c2nc1C#N,NF54,-,Erythrocytes,hypoxanthine uptake / radiometric,-,0.59 µM
CC[C@H]1OC(=O)[C@H](C)[C@@H](OC2C[C@@](C)(OC)[C@@H](O)[C@H](C)O2)[C@H](C)[C@@H](OC2O[C@H](C)C[C@H](N(C)C)[C@H]2O)[C@](C)(OC2C[C@@H](N(C)C)[C@@H](O)[C@H](C)O2)C[C@@H](C)C(=O)[C@H](C)[C@@H](O)[C@]1(C)O,W2 Mef AziR,-,RBC,fluorescence,120 h,0.93 µM
C[C@H]1[C@@H](OC(=O)CCC(=O)O)O[C@@H]2O[C@@]3(C)CC[C@H]4[C@H](C)CC[C@@H]1[C@@]24OO3,Dd2,-,Red blood cells,SYBR Green,-,0.002 µg/mL
CC(C)OC(C)C,W2,CQ-resistant,Human dermal fibroblasts,MTT,-,9.5 µg/mL
C=C[C@]1(C)C[C@H](OC(=O)C(=C)CO)[C@H]2C(=C)C(=C)C[C@@H]2C1C(=C)CO,HB3,-,Red blood cells,SYBR Green,-,0.472 µg/mL
CCN(CC)CCCC(C)Nc1ccnc2cc(Cl)ccc12,W2,CQ-resistant,Human dermal fibroblasts,MTT,-,0.2 µg/mL
C[C@H]1CCc2c([nH]c3ccccc23)[C@@]2(N1)C(=O)Nc1ccc(Cl)cc12,Dd2 (EF1),Multidrug-resistant,-,SYBR Green / fluorescence,-,0.0275 µM